Anti-infective test results gathered from many reports (values: NIAID ChemDB through PubChem).

Shared fields: growth or infection tests; species: HIV-1

Lines come from different laboratories, so protocols vary.

structure	changes	cells	strain	endpoint	method	value
Cc1cc(C#Cc2ccccc2)cc(C)c1Oc1ccnc(Nc2ccc(C#N)cc2)n1	Y188L	MT-4	IIIB	EC50	MTT	1.513 µM
N#CC[C@H](C1CCCC1)n1cc(-c2ncnc3[nH]ccc23)cn1	M184V	Primary T lymphocytes		EC50	p24 / ELISA	0.3 µM
S=C(NCCc1cccs1)Nc1ccc(Br)cn1	RT-D67N K70R T215F K219Q	HT4 + HeLa	G691-2 Clinical isolate NRTI-resistant	EC50	plaque count	0.005 µM
CC(C)=CCN1c2cc(Cl)cc3[nH]c(=S)n(c23)C[C@@H]1C	RT-L74V Y181C	MT-4		EC95		>3 µM
O=c1[nH]cnc2c1ncn2[C@H]1CC[C@@H](CO)O1		PBMC	8791 CLADE A CLADE A	EC50	p24	1.42 µM
Cc1ccc(S(=O)(=O)N(CC(C)C)C[C@@H](O)[C@H](Cc2ccccc2)NC(=O)O[C@H]2CO[C@H]3OCC[C@H]32)cc1	LPV-P31 lopinavir-resistant mutant	MT-2	IIIB	EC50	ATP	0.0028 µM
Cc1cn([C@H]2C[C@H](N=[N+]=[N-])[C@@H](CO)O2)c(=O)[nH]c1=O	A62V V75I F77L F116Y Q151M	Primary T lymphocytes		EC90	p24 / ELISA	41.2 µM
CC(C)(C)C(=O)OCOP(=O)(COCCn1cnc2c(N)ncnc21)OCOC(=O)C(C)(C)C	RT-V35T E40D K173T R211K L214F	PBMC	G3 R5 subtype G/- (env/gag)	EC50	p24	4.8 µM
O=C1N(Cc2ccc(CO)cc2)[C@H](Cc2ccccc2)[C@H](O)[C@@H](O)[C@@H](Cc2ccccc2)N1Cc1ccc(CO)cc1		MT-2	A018C POST AZT	EC50	virus yield	<0.32 µM
CCN(c1nc(F)ccc1NC(C)(C)C)C1CCN(C(=O)c2cc3cc(NC(=O)N4CCN(C)CC4)ccc3[nH]2)CC1	I401T	MT-2	IIIB	EC50	p24 / ELISA	0.0261 µM
CCc1c(CC2CCCCC2)nc(SCC(=O)c2ccccc2)[nH]c1=O	V108I	C8166	NL4-3	EC50	p24 / ELISA	0.01276 µM
CC(C)(C)NC(=O)[C@@H]1C[C@@H]2CCCC[C@@H]2CN1C[C@@H](O)[C@H](Cc1ccccc1)NC(=O)[C@H](CC(N)=O)NC(=O)c1ccc2ccccc2n1	PR-D30N	MT-4	NL4-3	EC50	p24	<0.01 µM
Cc1cccc(C)c1Oc1ccnc(Nc2ccc(C#N)cc2)n1	K103N	MT-4	IIIB	EC50	MTT	0.025 µM
Cc1cn([C@H]2C[C@H](N=[N+]=[N-])[C@@H](CO)O2)c(=O)[nH]c1=O		PBMC	CLADE A	EC50	RT activity	0.008 µM
C[C@H](Cn1cnc2c(N)ncnc21)OCP(=O)(O)O	RT-G48V L90M	MT-2	Saquinavir-resistant (G48V L90M)	EC50	p24	1.2 µM
CCCc1cc(=O)oc2c3c(c4c(c12)OC(C)(C)C=C4)O[C@H](C)[C@@H](C)[C@@H]3O	RT-Y181C	CEM + CEM-SS	Diphenyl sulfone-resistant (RT-Y181C)	EC50	XTT	0.08 µM
Cc1cc(S(N)(=O)=O)ccc1NC(=O)COc1ccc(Cl)cc1C(=O)c1cc(Cl)cc(C#N)c1	RT-K103N P225H	MAGI	NNRTI-resistant (RT K103N P225H)	EC50	β-galactosidase	0.0007 µM
Cc1cc(C#Cc2ccc(C(F)(F)F)cc2)cc(C)c1Oc1ccnc(Nc2ccc(C#N)cc2)n1	K103N	MT-4	IIIB	EC50	MTT	1.131 µM
Cc1ccnc2c1NC(=O)c1cccnc1N2C1CC1		CEM + CEM-SS	RF	EC50	XTT	0.2 µM
CO[P@](=O)(c1cc(C)cc(/C=C/C#N)c1)c1c(C(N)=O)[nH]c2ccc(Cl)cc12	K103N/Y181C	MT-4	BH10	EC50		0.0066 µM
Cc1cn([C@H]2C[C@H](N=[N+]=[N-])[C@@H](CO)O2)c(=O)[nH]c1=O	RT-D67N T69N K70R M184V T215F K219Q	PBMC	7295-1 NRTI resistant recombinant	EC50	p24	0.137 µM
COC(=O)N[C@H](C(=O)N[C@@H](Cc1ccccc1)[C@@H](O)CN(Cc1ccc(-c2ccccn2)cc1)NC(=O)[C@@H](NC(=O)OC)C(C)(C)C)C(C)(C)C	K112M K113E V128I	MT-2	IIIB	EC50	p24 / ELISA	0.0012 µM
CC(=O)N1CCC(C(=O)N(CCCN2CCC(Cc3ccc(C(N)=O)cc3)CC2)c2ccc(C)c(Cl)c2)CC1		PBMC	HNK R5 clinical isolate	EC50	p24	0.0017 µM
CC(C)=CCOc1cc(NC(=S)c2ccoc2C)ccc1Cl		CEM + CEM-SS	IIIB	EC50	XTT	0.005 µM
Cc1ccnc2c1NC(=O)c1cccnc1N2C1CC1	F227L + V106A	MT-4	IIIB	EC50	MTT	3.538 µM
O=C1Nc2ccc(Cl)cc2[C@@](C#CC2CC2)(C(F)(F)F)O1	L74V	Primary T lymphocytes		EC90	p24 / ELISA	0.2 µM
COC(=O)[C@H](C)NP(=O)(OC[C@@H]1C=C[C@H](n2cc(C)c(=O)[nH]c2=O)O1)Oc1ccc(Br)cc1	RT-M41L T215Y	PBMC	R416-10 NRTI resistant	EC50	p24	0.0002 µM
CCCc1cc(=O)oc2c3c(c4c(c12)OC(C)(C)C=C4)O[C@@H](C)[C@H](C)[C@@H]3O		CEM + CEM-SS	SK1	EC50	XTT	0.06 µM

An empty or dashed field is not shown. ECn is the concentration giving n% inhibition of infection, replication or growth.